Test results taken from patent publication US20040197862A1.

Target: HLA-DR2b (DRA, DRB1*1501), soluble, thrombin-cleaved DR/CLIP complex (human)

## HIV p24 (121-142) peptide
  IC50: 11 µM
